Target: PltC of the PltC typhoid toxin (PltC-PltA-CdtB-His6) (Salmonella enterica serovar Typhi)
Assay: crystal structure

“PltC of the PltC typhoid toxin (PltC-PltA-CdtB-His6) (natural protein)” gave a stoichiometry N of 5.

Source: PMC8749428, “Molecular Insights into the Assembly and Functional Diversification of Typhoid Toxin” (2022)
